Taken from: PubChem BioAssay AID624099 (ICCB-Longwood, 2012)

- Purpose: 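Human genes that papillomavirus E2 requires to repress the HPV18 LCR promoter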 (primary screen)
- Cells: human C33A cervical carcinoma cells (HPV-negative) stably expressing BPV1 E2 and an HPV18 LCR luciferase reporter
- Reagent: siRNA pool against human genes, 40 nM
- Timing: 72 h
- Measurement: 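HPV18 LCR reporter light per well, converted to plate-wise z-scores that exclude control wells, and averaged over triplicate plates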
- Scale: mean z-score and z-score: higher = stronger reporter signal, weaker E2 silencing
- Hit rule: 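Hit if mean z-score reaches 2 and two or more of three replicate z-scores also reach 2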
Here is a random part of about 21,000 reagents tested. 497 of them (2.4%) were called active. 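Higher z means weaker E2 silencing; only reporter increases were scored, and knock-downs that hurt cell survival may mask genuine repressor factors.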 A number with no mark means an inactive call. The numbers tell different reagents against one gene apart. Reagent sequences are not shown.

no.	target gene	reagent	mean z-score	z-score, replicate A	z-score, replicate B	z-score, replicate C
1	FGD2 (GeneID 221472)	1	-0.45	-0.58	-0.37	-0.41
2	ISLR (GeneID 3671)	1	-0.41	-0.54	-0.27	-0.41
3	SNAI3 (GeneID 333929)	1	0.14	0.18	0.07	0.17
4	ZC2HC1C (GeneID 79696)	1	0.38	0.13	0.01	1
5	CA5B (GeneID 11238)	1	-1.52	-1.54	-1.54	-1.48
6	LOC392582 (retired record) (GeneID 392582)	1	-0.96	-1.05	-1.02	-0.8
7	VWA1 (GeneID 64856)	1	0.21	0.24	0.18	0.22
8	CD14 (GeneID 929)	1	-0.19	-0.05	-0.18	-0.34
9	WDR38 (GeneID 401551)	1	0.17	-0.38	0.64	0.25
10	PGCKA1 (GeneID 55286)	1	0.34	0.23	0.3	0.47
11	MAST1 (GeneID 22983)	1	-0.49	-0.32	-0.7	-0.45
12	PRDX4 (GeneID 10549)	1	-0.47	-0.28	-0.51	-0.64
13	ANTXRL (GeneID 195977)	1	0.16	0.14	0.29	0.04
14	SIGLEC15 (GeneID 284266)	1	-0.15	-0.27	-0.14	-0.04
15	MAGEE2 (GeneID 139599)	1	-1.56	-1.84	-1.19	-1.64
16	SLITRK5 (GeneID 26050)	1	-0.12	-0.06	-0.2	-0.08

4 of these entries, set out differently.
target gene | reagent | mean z-score | z-score, replicate A | z-score, replicate B | z-score, replicate C
PRDX4 (GeneID 10549) | 1 | -0.47 | -0.28 | -0.51 | -0.64
ANTXRL (GeneID 195977) | 1 | 0.16 | 0.14 | 0.29 | 0.04
SIGLEC15 (GeneID 284266) | 1 | -0.15 | -0.27 | -0.14 | -0.04
MAGEE2 (GeneID 139599) | 1 | -1.56 | -1.84 | -1.19 | -1.64

The listing continues.
no.	target gene	reagent	mean z-score	z-score, replicate A	z-score, replicate B	z-score, replicate C
17	USP17L2 (GeneID 377630)	1	0.83		0.89	0.76
18	FBXO22 (GeneID 26263)	1	-0.38	-0.22	-0.34	-0.57
19	TRIB3 (GeneID 57761)	1	1.31	1.24	1.25	1.43
20	BTRC (GeneID 8945)	1	-0.84	-1.07	-0.71	-0.75
21	GPR158 (GeneID 57512)	1	-0.36	-0.47	-0.57	-0.03
22	IL12B-AS1 (GeneID 285626)	1	-0.24	-0.24	-0.43	-0.06
23	EPS15 (GeneID 2060)	1	0.09	0.4	-0.07	-0.07
24	PPM1A (GeneID 5494)	1	-0.32	-0.29	-0.25	-0.4
25	SNX17 (GeneID 9784)	1	-0.16	-0.6	-0.03	0.15
26	AFG3L1P (GeneID 172)	1	0	0.25	-0.08	-0.17
27	AFG3L1P (GeneID 172)	2	-0.43		-0.56	-0.29
28	COMMD6 (GeneID 170622)	1	-0.66	-0.26	-1.09	-0.61
29	YARS1 (GeneID 8565)	1	0.27	0.34	0.4	0.08
30	LOC442030 (retired record) (GeneID 442030)	1	-0.12	-0.6	0.08	0.16
31	DICER1 (GeneID 23405)	1	-1.04	-1	-1.13	-0.98
32	CHRNA10 (GeneID 57053)	1	-1.16	-1.22	-1.06	-1.22
33	CBX6 (GeneID 23466)	1	0.44	0.16	0.55	0.62
34	PTPRJ (GeneID 5795)	1	0.5	0.24	0.74	0.52
35	RAB3IL1 (GeneID 5866)	1	-0.71	-0.86	-0.72	-0.54
36	MIR7-3HG (GeneID 284424)	1	-0.26	-0.46	-0.09	-0.24
37	LRP12 (GeneID 29967)	1	1.7	1.82	1.67	1.6
38	PPIAL4A (GeneID 653505)	1	0.27	0.07	0.39	0.36
39	ZC3H13 (GeneID 23091)	1	2.75 (active)	2.75	2.43	3.05
